Experimental data taken from article PMC11990009.

Columns and labels:
[1] = system: T1, HipB (Acidovorax citrulli Aac5); assay: competition with a labelled probe; conditions: unlabeled PhipBA against PhipBA-FAM, HipB 12 uM, shifted band absent (Table A3 calls it non-specific competitor); 20 uL reaction (buffer composition and pH not stated), HipB 12-36 uM, PhipBA-FAM 60 ng/uL, PhipBA 120 ng/uL, room temperature 30 min, 6% SDS-free protein gel; recombinant protein; residues 1-168; protein details: N-terminal 6xHis (pET-28a); probe letters rebuilt from the primers and the genome
T1 sequence (looked up): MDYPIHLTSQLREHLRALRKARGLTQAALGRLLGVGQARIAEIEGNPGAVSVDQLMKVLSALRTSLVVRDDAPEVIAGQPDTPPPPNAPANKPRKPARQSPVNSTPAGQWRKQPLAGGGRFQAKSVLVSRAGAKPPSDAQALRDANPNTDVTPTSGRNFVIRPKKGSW

[2] = system: T1, HipB (Acidovorax citrulli Aac5); assay: EMSA; conditions: HipB 12, 24, 36 uM; 20 uL reaction (buffer composition and pH not stated), HipB 12-36 uM, PhipBA-FAM 60 ng/uL, PhipBA 120 ng/uL, room temperature 30 min, 6% SDS-free protein gel; recombinant protein; residues 1-168; protein details: N-terminal 6xHis (pET-28a); label: 5' FAM; probe letters rebuilt from the primers and the genome

CATCTATATCGGTTCGTGCCAATATATCTACCAAAGCCAGTTTTTGCAAGATATTGGATTTGGTGTATGAATGGCGGTTATTGGAGATGCCCAGTAATTCATGCCTCGTCTGGCGAGTGACCGATTCATCGGACCACGGCGCACGAGCCTGGGGCTGCAGGAACGCTTCATCGCGGAGCTGGGGACCGAGTGATCGTCCGAGGTGTGCGTCCCCGCGGCTTCAATCCGGCCAGGCGTCCCGGCCGTGTTCCCTCCGCAATTCCTCGGCCCTGCTGCGTATCGCCTCACGCTCCTGCGGCCGCATCGTCTCCAGCCGCGCCAGCTGTGCCGCCATGCGGGGCACGTCTGCCAGCAGTTCCCGGTGCCTGAGCAGGAAGTCCCTGTAGAGCGTGGTGA (double strand) [PhipBA (unlabeled competitor)]
binding result [1]: binds

CATCTATATCGGTTCGTGCCAATATATCTACCAAAGCCAGTTTTTGCAAGATATTGGATTTGGTGTATGAATGGCGGTTATTGGAGATGCCCAGTAATTCATGCCTCGTCTGGCGAGTGACCGATTCATCGGACCACGGCGCACGAGCCTGGGGCTGCAGGAACGCTTCATCGCGGAGCTGGGGACCGAGTGATCGTCCGAGGTGTGCGTCCCCGCGGCTTCAATCCGGCCAGGCGTCCCGGCCGTGTTCCCTCCGCAATTCCTCGGCCCTGCTGCGTATCGCCTCACGCTCCTGCGGCCGCATCGTCTCCAGCCGCGCCAGCTGTGCCGCCATGCGGGGCACGTCTGCCAGCAGTTCCCGGTGCCTGAGCAGGAAGTCCCTGTAGAGCGTGGTGA (double strand) [PhipBA-FAM]
binding result [2]: binds

Protein sequences can lack the tags named with them.
